Pooled drug test results. Numbers come from NIAID ChemDB, via PubChem.

Shared fields: whole-cell or culture tests; species: HIV-1; method: cytopathic effect / XTT; endpoint: EC50

Two numbers with a dash give a range or band. Blank or dashed fields: not listed here. Rows are shuffled and stem from different studies. ECn is the concentration giving n% inhibition of infection, replication or growth.

smiles | changes | strain or isolate | cells | value
Cc1cccc(C)c1C(=O)N1CCC(C)(N2CCC(Nc3ccc(Br)cc3)CC2)CC1 |  |  | CEM | 2.9 µM
CC(C)C(OC(=O)c1cc(NC(=S)c2cccn2C)ccc1Cl)C(C)C |  | IIIB | CEM + CEM-SS | 0.06 µM
CC(=O)N[C@@H](CCCN(Cc1ccccc1)C(=O)N(CCCl)N=O)C(=O)NCc1ccccc1 |  | IIIB | CEM-IW + CEM | >100 µM
Nc1nc(=O)n([C@H]2C=C[C@@H](OCP(=O)(O)O)O2)cc1I |  | IIIB | MT-2 | >100 µg/mL
COc1cc(-c2ccc(N=Nc3ccc4c(S(=O)(=O)O)cc(S(=O)(=O)O)c(N)c4c3O)c(OC)c2)ccc1N=Nc1ccc2c(S(=O)(=O)O)cc(S(=O)(=O)O)c(N)c2c1O |  | RF | CEM + CEM-SS | 1.7 µM
C=CCNC(=O)N(CCC)CCCC[C@H](NC(C)=O)C(=O)NCc1ccccc1 |  | IIIB | CEM-IW + CEM | >100 µM
CC(C)=CCOc1cc(NC(=S)c2ccsc2C)ccc1Cl | RT-K103N Y181C | Pyridinone-resistant (RT Y181C K103N) | CEM + CEM-SS | >2 µM
CC(=O)N[C@@H](CCCNC(=O)OCc1ccccc1)C(=O)NCc1ccccc1 |  | IIIB | CEM-IW + CEM | >100 µM
Cc1occc1C(=S)Nc1ccc(Cl)c(/C=N/OC(C)(C)C)c1 | RT-V106A | NL4-3 | CEM + CEM-SS | 2.7 µM
CN(C)C1=C(C#N)/C(=C2/C(C#N)=C(N(C)C)N(c3ccc([N+](=O)[O-])cc3)c3c2n(C)c2ccccc32)c2c(c3ccccc3n2C)N1c1ccc([N+](=O)[O-])cc1 | RT-K103N Y181C | A17 | CEM + CEM-SS | 2.98–3.48 µM
CC(C)CNC(=O)c1ccccc1SSc1ccccc1C(=O)NCC(C)C |  |  | CEM | 1.8 µM
O=c1[nH]c(=O)n([C@H]2C=C[C@@H](OCP(=O)(O)O)O2)cc1I |  | IIIB | MT-2 | >100 µg/mL
CC(=O)N[C@@H](CCCCN)C(=O)NCc1ccccc1 |  | IIIB | CEM-IW + CEM | >100 µM
Cc1occc1C(=S)Nc1ccc(Cl)c(C(=O)OC(C)C)c1 | RT-V108I | NL4-3 | CEM + CEM-SS | 0.09 µM
CC(C)=CCN1CC(C)Cn2c(=S)[nH]c3cccc1c32 |  | 6S | CEM(SS) + CEM-SS | 1.29 µM
CCCN(CCC[C@H](NC(C)=O)C(=O)NCc1ccccc1)C(=O)NC |  | IIIB | CEM-IW + CEM | >100 µM
CC(C)=CCN1Cc2cc(Cl)cc3[nH]c(=O)n(c23)C[C@@H]1C | RT-L100I | IIIB | MT-4 | >22 µM
CC(=O)N[C@@H](CCCNC(=O)N(CCCl)N=O)C(=O)NCc1ccccc1 |  | IIIB | CEM-IW + CEM | >100 µM
CCCNC(=O)c1ccccc1SSc1ccccc1C(=O)NCCC |  |  | CEM | >19 µM
[O-][n+]1onc2ncnc(N3CC[N+]4(CC3)CC[N+]3(CCN(c5ncnc6no[n+]([O-])c56)CC3)CC4)c21 | RT-K103N Y181C | A17 | MT-2 | 4.7 µM
Cc1occc1C(=S)Nc1ccc(Cl)c(C(=O)OCC2CC2)c1 | RT-V179D | NL4-3 | CEM + CEM-SS | 0.5 µM
CC(C)=CCOc1cc(NC(=S)c2ccoc2C)ccc1Cl | RT-M184I | 3TC-RS (RT-M184I) | CEM + CEM-SS | 0.03 µM
N#Cc1ccc(NC(=O)c2ccccc2SSc2ccccc2C(=O)Nc2ccc(C#N)cc2)cc1 |  |  | CEM | 15 µM
CCCc1cc(=O)oc2c3c(c4c(c12)OC(C)(C)CC4)O[C@H](C)[C@@H](C)C3=O |  | IIIB | CEM + CEM-SS | 1.09 µM
CC(=O)N[C@@H](CCCNC(=O)N(C)N=O)C(=O)NCc1ccccc1 |  | IIIB | CEM-IW + CEM | >100 µM
CCCc1cc(=O)oc2c3c(c4c(c12)OC(C)(C)CC4)O[C@@H](C)[C@H](C)[C@@H]3O |  | IIIB | MT-2 | 0.8 µM
Cc1cn([C@H]2C=C[C@@H](OCP(=O)(O)O)O2)c(=O)[nH]c1=O |  | IIIB | CEM | 29 µg/mL
C=CCO/N=C/c1cc(NC(=S)c2ccoc2C)ccc1Cl | RT-V106A | NL4-3 | CEM + CEM-SS | 0.8 µM
CCCN(CCC[C@H](NC(C)=O)C(=O)NCc1ccccc1)C(=O)N(C)N=O |  | IIIB | CEM-IW + CEM | >100 µM
CCOC(=O)CNC(=O)c1ccccc1SSc1ccccc1C(=O)NCC(=O)OCC |  |  | CEM | 15 µM
CCCCCCCCCCCCCCCC(=O)Nc1ccn([C@H]2CC[C@@H](COP(=O)(O)O[C@H]3C[C@H](n4cc(C)c(=O)[nH]c4=O)O[C@@H]3CO)O2)c(=O)n1 |  | IIIB | CEM + CEM-SS | 0.0465 µM
CC1=C(C(=O)Nc2ccc(Cl)c(C(=O)OC(C)C)c2)SCCO1 |  | IIIB | CEM + CEM-SS | 0.8 µM
COC(=O)[C@H](Cc1ccccc1)NC(=O)[C@H]1/C(=C/CO)O[C@@H]2CC(=O)N21 |  | IIIB | MT-2 | 68 µg/mL
Cc1occc1C(=S)Nc1ccc(Cl)c(C(=O)OC(C(C)C)C(C)C)c1 |  | RF | CEM + CEM-SS | 0.032 µM
CCOc1ccc(F)c(CCNC(=S)Nc2ncc(C(F)(F)F)s2)c1Cl |  | IIIB | MT-4 | 0.07 µM
C=CSC(NC(=O)[C@H](Cc1ccccc1)NS(=O)(=O)N1CCOCC1)C(=O)N[C@@H](CC1CCCCC1)[C@@H](O)C[C@H](C(=O)NCCCC)C(C)C |  | IIIB | CEM | >13 µM
C[C@H](NC(=O)c1ccccc1SSc1ccccc1C(=O)N[C@@H](C)C(=O)O)C(=O)O |  |  | CEM | 38 µM
Cn1cc(NC(=O)Nc2cc(C(=O)Nc3cc(C(=O)Nc4ccc(S(=O)(=O)O)c5cc(S(=O)(=O)O)ccc45)n(C)c3)n(C)c2)cc1C(=O)Nc1cc(C(=O)Nc2ccc(S(=O)(=O)O)c3cc(S(=O)(=O)O)ccc23)n(C)c1 | PYR-R | A17 | MT-4 | 4.5 µM
CN1N=C(N)c2cn([C@@H]3O[C@H](COP(=O)(O)O)[C@@H](O)[C@H]3O)c3ncnc1c23 |  | G | CEM + CEM-SS | 0.15 µM
CCc1cn([C@H]2C=C[C@@H](OCP(=O)(O)O)O2)c(=O)nc1N |  | IIIB | MT-2 | >100 µg/mL

The last 3 rows once more:

smiles,changes,strain or isolate,cells,value
Cn1cc(NC(=O)Nc2cc(C(=O)Nc3cc(C(=O)Nc4ccc(S(=O)(=O)O)c5cc(S(=O)(=O)O)ccc45)n(C)c3)n(C)c2)cc1C(=O)Nc1cc(C(=O)Nc2ccc(S(=O)(=O)O)c3cc(S(=O)(=O)O)ccc23)n(C)c1,PYR-R,A17,MT-4,4.5 µM
CN1N=C(N)c2cn([C@@H]3O[C@H](COP(=O)(O)O)[C@@H](O)[C@H]3O)c3ncnc1c23,,G,CEM + CEM-SS,0.15 µM
CCc1cn([C@H]2C=C[C@@H](OCP(=O)(O)O)O2)c(=O)nc1N,,IIIB,MT-2,>100 µg/mL